# In BindingDB's records for 10450950:
# Biological target: Neuraminidase (Influenza A virus (strain A/Tern/Australia/G70C/1975 H11N9), UniProt P03472)
# Assay: ASSAY_NAME: Neuraminidase Inhibition Assay DESCRIPTION: A standard fluorimetric assay was used to measure influenza virus neuraminidase activity. The substrate 2 -(4-methylumbelliferyl)-alpha-D-acetylneuraminic acid is cleaved by neuraminidase to yield a fluorescent product that can be quantified. Fluorescence was read using an Aminco-Bowman fluorescence spectrophotometer (excitation, 360 nm; emis
# Settings: pH 6.5
compound,measurement,value
CC(=O)Nc1c(N=C(N)N)cc(C(=O)O)cc1N=C(N)N,IC50,250 µM
